Pooled drug test results. Numbers come from NIAID ChemDB, via PubChem.

All rows: tests in culture; agent: Candida albicans; endpoint: MIC100

Neighbouring rows are from separate reports. Blank or dashed fields: not listed here. A number after MIC or MFC names an inhibition level or a share of isolates.

structure | strain or isolate | result
Cc1ccc(-c2n[nH]c(COc3nc(C)nc4ccccc34)n2)cc1 | MTCC 227 | 6.25 µg/mL
CC(C)N1CCN(c2nc3ccc4oc(=O)ccc4c3s2)CC1 | MTCC 183 | 62.5 µg/mL
CC(=O)Nc1ccc(OCC(=O)N2N=C(c3nc4ccccc4[nH]3)CC2c2ccc(F)cc2)cc1 | MTCC 227 | 501 µg/mL
Cc1ccc(-c2nc3ccccc3c(=O)n2-c2ccc(C(=O)NN3C(=O)/C(=C/c4ccccc4)SC3c3ccc(F)cc3)cc2)cc1 | MTCC 227 | 1000 µg/mL
O=C1C(Cl)C2(C(=O)Nc3ccccc32)N1c1ccc([N+](=O)[O-])cc1 | MTCC 183 | 25 µg/mL
O=[N+]([O-])c1cccc(/C=N\O)c1 | - | 6020 µM
O=C1CSC(N2N=C(c3ccccc3F)CC2c2cc3ccccc3nc2Cl)=N1 | MTCC 227 | 1000 µg/mL
Cc1nc(OCc2nc(-c3ccccc3)n[nH]2)c2ccccc2n1 | MTCC 227 | 12.5 µg/mL
CC(=O)Nc1ccc(OCC(=O)N2N=C(c3nc4ccccc4[nH]3)CC2c2cccc(Br)c2)cc1 | MTCC 227 | 500 µg/mL
Cc1ccc(N2C(=O)C(Cl)C23C(=O)Nc2ccccc23)cc1 | MTCC 183 | 16 µg/mL
Oc1ccc(-c2n[nH]c(COc3nc(C(F)(F)F)nc4ccccc34)n2)cc1 | MTCC 227 | 12.5 µg/mL
C/C(=N/O)C(Cl)(Cl)Cl | - | 3220 µM
CC(=O)Nc1ccc(OCC(=O)N2N=C(c3nc4ccccc4[nH]3)CC2c2ccccc2Br)cc1 | MTCC 227 | 250 µg/mL
CCCCCCCCCCCCCCCCOC(=O)OC1CC[C@@]2(C)C(=CCC3C2CC[C@@]2(C)C3CC[C@@H]2[C@@H](C)CCCC(C)C)C1 | ATCC 90028 | 840 µg/mL
O=C1CSC(N2N=C(c3ccc(F)cc3)CC2c2cc3ccccc3nc2Cl)=N1 | MTCC 227 | 250 µg/mL
COc1cccc(-c2cc3cccnc3[nH]2)c1 | ATCC 10231 | 31.3 µg/mL
Cc1nc(OCc2nc(-c3ccc(O)cc3)n[nH]2)c2ccccc2n1 | MTCC 227 | 12.5 µg/mL
O=C1CSC(N2N=C(c3ccc(O)cc3)CC2c2cc3ccccc3nc2Cl)=N1 | MTCC 227 | 1000 µg/mL
Cn1c(=O)ccc2c3sc(N4CCC(Cc5ccccc5)CC4)nc3ccc21 | MTCC 183 | 200 µg/mL
COc1ccccc1-c1cc2cccnc2[nH]1 | ATCC 10231 | 7.8 µg/mL
O/N=C\c1cccs1 | - | 7870 µM
Cc1ccc(-c2n[nH]c(COc3ncnc4ccccc34)n2)cc1 | MTCC 227 | 12.5 µg/mL
Cc1ccc(-c2nc3ccccc3c(=O)n2-c2ccc(C(=O)NN3C(=O)/C(=C/c4ccc([N+](=O)[O-])cc4)SC3c3ccc(F)cc3)cc2)cc1 | MTCC 227 | 500 µg/mL
O/N=C\c1ccccc1O | - | 1800 µM
O=C1CSC(N2N=C(c3cccc(F)c3)CC2c2cc3ccccc3nc2Cl)=N1 | MTCC 227 | 100 µg/mL
Cc1cnc2[nH]c(-c3ccccc3)cc2c1 | ATCC 10231 | 15.6 µg/mL
Cc1ccc(N2C(=O)C(Cl)C23C(=O)Nc2c(Br)cc(Br)cc23)cc1 | MTCC 183 | 16 µg/mL
O=C1CSC2(CCc3ccccc32)N1n1c(COc2ccc(Cl)cc2)n[nH]c1=S | - | 12.5 µg/mL
O=[N+]([O-])c1ccc(/C=N\O)cc1 | - | 6020 µM
C/C(Cl)=C/C=C/C=C/C=C/C=C/C(O)=C1\C(=O)[C@H](CC(N)=O)N(C2OC[C@@H](O)[C@H](O)[C@@H]2O[C@@H]2OC[C@@H](O[C@@H]3O[C@H](C)[C@@H](O)[C@@H]3O)[C@@H](O)[C@@H]2O)C1=O | Wild type (ATCC 32354) | 1.95 µg/mL
CC(=O)Nc1ccc(OCC(=O)N2N=C(c3nc4ccccc4[nH]3)CC2c2ccccc2C)cc1 | MTCC 227 | 500 µg/mL
Cc1ccc(-c2nc3ccccc3c(=O)n2-c2ccc(C(=O)NN3C(=O)/C(=C/c4cccc(O)c4)SC3c3ccc(F)cc3)cc2)cc1 | MTCC 227 | 1000 µg/mL
CC1CC(c2ccncc2)Nc2ccc(Br)cc21 | ATCC 10231 | >250 µg/mL
O=C1CSC2(CCc3ccccc32)N1n1c(-c2cccnc2)n[nH]c1=S | - | 3.13 µg/mL
COc1ccc(C2CC(c3nc4ccccc4[nH]3)=NN2C(=O)COc2ccc(NC(C)=O)cc2)cc1 | MTCC 227 | 500 µg/mL
Clc1cnc2[nH]ccc2c1 | ATCC 10231 | 31.3 µg/mL
O=C1C(Cl)C2(C(=O)Nc3c(Br)cc(Br)cc32)N1c1ccc([N+](=O)[O-])cc1 | MTCC 183 | 26 µg/mL
O=C1CSC(N2N=C(c3ccccc3)CC2c2cc3ccccc3nc2Cl)=N1 | MTCC 227 | 1000 µg/mL
Cc1ccc(-c2nc3ccccc3c(=O)n2-c2ccc(C(=O)NN3C(=O)/C(=C/c4ccc(O)cc4)SC3c3ccc(F)cc3)cc2)cc1 | MTCC 227 | 1000 µg/mL
O=c1ccc2c(ccc3nc(N4CCN(c5ncccn5)CC4)sc32)o1 | MTCC 183 | 100 µg/mL
FC(F)(F)c1nc(OCc2nc(-c3ccccc3)n[nH]2)c2ccccc2n1 | MTCC 227 | 12.5 µg/mL
O=C1CSC2(CCc3ccccc32)N1n1c(-c2ccc(Cl)cc2Cl)n[nH]c1=S | - | 6.25 µg/mL
O=C1CSC(N2N=C(c3ccc([N+](=O)[O-])cc3)CC2c2cc3ccccc3nc2Cl)=N1 | MTCC 227 | 100 µg/mL
O=C1CSC2(CCc3ccccc32)N1n1c(COc2ccc(Cl)cc2Cl)n[nH]c1=S | - | 12.5 µg/mL
FC(F)(F)c1cc(-c2cc3cc(Br)cnc3[nH]2)cc(C(F)(F)F)c1 | ATCC 10231 | 15.6 µg/mL
Cc1ccccc1N1C(=O)C(Cl)C12C(=O)Nc1c(Br)cc(Br)cc12 | MTCC 183 | 19 µg/mL

Repeating the final 5 entries:

{"structure": "O=C1CSC2(CCc3ccccc32)N1n1c(-c2ccc(Cl)cc2Cl)n[nH]c1=S", "result": "6.25 µg/mL"}
{"structure": "O=C1CSC(N2N=C(c3ccc([N+](=O)[O-])cc3)CC2c2cc3ccccc3nc2Cl)=N1", "strain or isolate": "MTCC 227", "result": "100 µg/mL"}
{"structure": "O=C1CSC2(CCc3ccccc32)N1n1c(COc2ccc(Cl)cc2Cl)n[nH]c1=S", "result": "12.5 µg/mL"}
{"structure": "FC(F)(F)c1cc(-c2cc3cc(Br)cnc3[nH]2)cc(C(F)(F)F)c1", "strain or isolate": "ATCC 10231", "result": "15.6 µg/mL"}
{"structure": "Cc1ccccc1N1C(=O)C(Cl)C12C(=O)Nc1c(Br)cc(Br)cc12", "strain or isolate": "MTCC 183", "result": "19 µg/mL"}